Experimental findings from patent US7750123B2 are described below.

The target in assay [1] is S1-Ig (SARS-CoV (Tor2 isolate); human) (UniProt P59594). The assay can be described thus: SPR (BIAcore 3000), S1-Ig amine-coupled to CM5 chip.
In assay [2] the target is S1-C9 (SARS-CoV (Tor2 isolate)) (UniProt P59594). Description: phage ELISA, S1-C9 coated 0.2 µg per well.
Assay [3] has as its target S1(327-510)-Ig (SARS-CoV (Tor2 isolate); human) (UniProt P59594). Description: radioimmunoprecipitation with 80R scFv beads, normalized to Protein A.

Turning to 80R scFv, in assay [1], the Ka worked out at 3.1e+07 M⁻¹, the Kd is 32.3 nM, the koff was determined as 0.00836 s⁻¹ and the kon turned out to be 229000 M⁻¹ s⁻¹. This substance gave an A450 in assay [2] greater than 1 A450. This substance also showed a percent of the amount that Protein A precipitated in assay [3] of 5%.
